A mixed list of measured activities; the numbers were collected in NIAID ChemDB.

All rows: whole-cell or culture tests; species: Mycobacterium tuberculosis

An empty or dashed field is not shown. ECn: concentration that inhibits the pathogen or its effect by n%. MIC bound comes from a single tested concentration. Lines come from different laboratories, so protocols vary. MIC50, MIC90 and the like: level of inhibition, or share of isolates inhibited. Percent inhibition refers to the dose given; in toxicity tests it is the harm to the cells.

SMILES,strain or isolate,cells,method,setting,read-out,dose,result
O=C(N/N=C/c1cccc(C(F)(F)F)c1)c1ccncc1,Kanamycin-resistant,,,,MIC,,0.1 µg/mL
CCCCCCCCCOc1ccccc1NC(=O)OCCN1CCCCC1,My 331/88,,,,MIC,,16 µM
C=c1[nH]c(=O)c(=C)[nH]c1=O,H37Rv,,BACTEC,,MIC,,≥12.5 µg/mL
CC(NC(=O)c1ccccc1C(F)(F)F)c1nnc(SCCOc2ccc(Cl)cc2)n1C,H37Rv (ATCC 27294),,broth dilution,,MIC,,>32 µg/mL
CCOc1ccc2c(NN)cc(C)nc2c1,H37Rv,VERO,,,MIC,,12.5 µg/mL
CN(/N=C/c1ccccc1)C(=O)c1nc2c(N)nc(-c3ccccc3)nc2nc1N,H37Rv,,resazurin,,MIC bound,,>6.25 µg/mL
CCOc1ccc(-n2c(-c3ccc(Cl)cc3)cs/c2=N\NC(=O)COc2cnccn2)cc1,H37Rv,,,,MIC,,19 µg/mL
Cc1ccc(CCNC(=O)c2c3nc4c(C(=O)NCCc5ccc(C)cc5)cccc4oc-3cc(=O)c2N)cc1,H37Rv,,BACTEC,,MIC bound,,>12.5 µg/mL
CCOC(=O)COc1ccc(-c2ccc(C#N)cc2)c(CN2CCN(c3ccccn3)CC2)c1,H37Rv (ATCC 27294),,broth dilution,,MIC,,4 µg/mL
c1ccc(C(CCNCCNCC(c2ccccc2)c2ccccc2)c2ccccc2)cc1,,,,,MIC,,37.5 µM
CC(/C=N/NC(=S)SCc1ccccc1)=N\NC(N)=S,H37Rv,,resazurin,,MIC,,0.2 µg/mL
CC[C@H]1OC(=O)[C@H](C)[C@@H](O[C@H]2C[C@@](C)(OC)[C@@H](O)[C@H](C)O2)[C@H](C)[C@@H](O[C@@H]2O[C@H](C)C[C@H](N(C)C)[C@H]2O)[C@](C)(O)C[C@@H](C)C(=O)[C@H](C)[C@@H](O)[C@]1(C)O,ATCC 35828,,,,MIC,,>8 µg/mL
O=C1c2cc(I)ccc2-n2c1nc1ncccc1c2=O,H37Rv,,,,MBC,,4 µg/mL
CCCCCCCCCCCCCCCCCCNCCNC(C)CCc1ccccc1,,,,,MIC,,50 µM
CC(C)NC(=S)NNC(=O)COc1cnccn1,H37Rv,,,,MIC,,63 µg/mL
CCCCCc1cc(OC)c2ccccc2n1,MT2,,,,MIC,,42 µg/mL
CCCCOc1ccccc1NC(=O)OCCN1CCOCC1,My 331/88,,,,MIC,,250 µM
O=C(N/N=C/c1ccccc1F)c1ccncc1,H37Rv (ethionamide-resistant),,,,MIC,,>32 µg/mL
CC(=O)n1cc(/C=C2/N=C(c3ccc([N+](=O)[O-])cc3)OC2=O)c2ccccc21,H37Rv,,BACTEC,,inhibition,12.5 µg/mL,-9%
CCCCCC(C)NCCNc1cccc2ncccc12,,,,,MIC,,6.25 µM
O=[N+]([O-])c1cn2c(n1)OC[C@@H](OCc1ccc(OC(F)(F)F)cc1)C2,H37Rv-T2 (PA-824-resistant),,,,MIC,,>100 µM
CN[C@@H]1[C@H](O[C@H]2[C@H](O[C@H]3[C@H](O)[C@@H](O)[C@H](N=C(N)N)[C@@H](O)[C@@H]3N=C(N)N)O[C@@H](C)[C@]2(O)C=O)O[C@@H](CO)[C@H](O)[C@H]1O,MTB17 (INH RIF-R),,,,MIC,,0.3 µg/mL
CC(NNC(=O)c1ccncc1)c1ccc(F)cc1,Rifampicin-resistant,,,,MBC,,12.5 µg/mL
CCCCCCCCCOc1ccccc1NC(=O)OCC[NH+]1CCCC1,My 331/88,,,,MIC,,16 µM
CCCCCCCCNS(=O)(=O)c1ccc2c(c1)C(=O)c1nc3ncccc3c(=O)n1-2,H37Rv,,,,MIC,,8 µg/mL
OC1CC2c3ccccc3C1c1cccc[n+]12,H37Rv,,BACTEC,,inhibition,12.5 µg/mL,3%
CC(NC(=O)c1c(F)cccc1F)c1nnc(SCc2ccc(F)cc2)n1Cc1cccnc1,H37Rv (ATCC 27294),,broth dilution,14 d,MIC,,>64 µg/mL
CCCCCc1cc(/C=C2/N=C(c3ccc[nH]3)C=C2OC)[nH]c1C,PZA-R,,,,MIC,,1.6 µg/mL
CO[C@H]1/C=C/O[C@@]2(C)Oc3c(C)c(O)c4c(=O)c(c5oc6cc(N7CCN(CC(C)C)CC7)cc(=O)c6nc5c4c3=C2O)NC(=O)/C(C)=C\C=C\[C@H](C)[C@H](O)[C@@H](C)[C@@H](O)[C@@H](C)[C@H](OC(C)=O)[C@@H]1C,33 (rifampin-resistant),,,,MIC,,0.05 µg/mL
CC(NC(=O)c1c(F)cccc1Cl)c1nnc(SCc2ccc(F)cc2)n1Cc1cccnc1,H37Rv (ATCC 27294),,broth dilution,7 d,MIC,,>64 µg/mL
CC(NNC(=O)c1ccncc1)c1ccc(Cl)cc1Cl,Erdman,Macrophages,colony count,inside macrophages,EC90,,1.38 µg/mL
COc1ccc2c(N/N=C/c3c(OC)ccc4ccccc34)cc(C)nc2c1,H37Rv,VERO,,,inhibition,12.5 µg/mL,100%
CC(C)(C)OC(=O)COc1ccc(-c2ccc(Cl)cc2)c(CN2CCN(c3ccccn3)CC2)c1,H37Rv (ATCC 27294),,broth dilution,,MIC,,16 µg/mL
CCCCCCCCOc1ccc(NC(=O)OCCN2CCCCC2)cc1,My 331/88,,,,MIC,,8 µM
O=C(O)COc1ccc(-c2ccc(Cl)cc2)c(CN2CCN(c3ccncc3)CC2)c1,H37Rv (ATCC 27294),,broth dilution,,MIC,,32 µg/mL
O=[n+]1c2ccccc2n([O-])c2ccccc21.[Cl][Cu][Cl],EMB-R,,,,MIC,,1.6 µg/mL
O=C1c2cc(Cl)ccc2-n2c1nc1cc(N3CCCCC3)ccc1c2=O,H37Rv,,,,MIC,,0.13 µg/mL
CC[C@H]1OC(=O)[C@H](C)[C@@H](O[C@H]2C[C@@](C)(OC)[C@@H](O)[C@H](C)O2)[C@H](C)[C@@H](O[C@@H]2O[C@H](C)C[C@H](N(C)C)[C@H]2O)[C@](C)(OC)C[C@@H](C)C(=O)[C@H](C)[C@@H](O)[C@]1(C)O,Drug-resistant,,,,MIC50,,>8 µg/mL
CCCCCCCCc1ccc2c(c1)C(=O)c1nc3ccncc3c(=O)n1-2,TN1082RFLP:V (DRUG sensitive),,,,MIC,,≤0.015 µg/mL
CO[C@H]1/C=C/O[C@@]2(C)Oc3c(C)c(O)c4c(O)c(c(/C=N/N5CCN(C/C=C/c6ccccc6)CC5)c(O)c4c3C2=O)NC(=O)/C(C)=C\C=C\[C@H](C)[C@H](O)[C@@H](C)[C@@H](O)[C@@H](C)[C@H](OC(C)=O)[C@@H]1C,3125 (rifampin-sensitive),,,,MBC,,0.1 µg/mL
Cc1cccc(N2CCN(Cc3cc(OCC(=O)O)ccc3-c3ccc(C#N)cc3)CC2)n1,H37Rv (ATCC 27294),,broth dilution,,MIC,,64 µg/mL
C/C(=N\NC(=O)c1ccncc1)c1ccc(F)cc1,Isoniazid-resistant,,,,MBC,,>1.6 µg/mL
COc1ccc(-c2cs/c(=N\NC(=O)COc3cnccn3)n2CC(C)C)cc1,H37Rv,,,,MIC,,17 µg/mL
CC(=O)Oc1c(C)c(O)c(C(C)=O)c2c1C1(C)C(=O)C(C(C)=O)=C(O)C=C1O2,H37Rv,VERO,BACTEC,,MIC,,12.5 µg/mL
COc1ccc(CN=C2NC(=O)/C(=C/c3ccccc3Cl)N2)cc1,H37Rv,,,,inhibition,12.5 µg/mL,8%
CC1CCC(NCCNC[C@]2(C)CCC[C@]3(C)c4ccc(C(C)C)cc4CC[C@@H]23)CC1,,,,,MIC,,25 µM
O=[N+]([O-])c1cn2c(n1)OC[C@@H](OCc1ccc(OCc3ccccc3)cc1)C2,H37Rv-T3-Fgd1 (PA-824-resistant),,,,MIC,,0.2 µM
NC1CCN(c2c(F)cc3c(=O)c(C(=O)O)cn(C4CC4)c3c2Cl)C1,ATCC 35820,,,,MIC,,0.125 µg/mL
COc1ccc(/C=C2\N=C(c3ccc(Cl)c(Cl)c3)OC2=O)cc1OC,H37Rv,,BACTEC,,inhibition,12.5 µg/mL,15%
O=C1c2cc(C(F)(F)F)ccc2-n2c1nc1ccncc1c2=O,H37Rv,,,,MIC,,0.03 µg/mL
CCCCCOc1ccccc1NC(=O)OCCN1CCCCCC1,My 331/88,,,,MIC,,16 µM
O=C1NC(=NCc2ccccc2)N/C1=C\c1ccc(Cl)cc1Cl,H37Rv,,,,inhibition,12.5 µg/mL,46%
COCCNCCNC[C@]1(C)CCC[C@]2(C)c3ccc(C(C)C)cc3CC[C@@H]12,,,,,MIC,,12.5 µM
CN1c2ccccc2CCC1CCc1ccc2c(c1)OCO2,MT5,,,,MIC,,>339 µg/mL
NC[C@@H]1O[C@H](O[C@H]2[C@@H](O)[C@H](O[C@@H]3[C@@H](O)[C@H](N)C[C@H](N)[C@H]3O[C@H]3O[C@H](CO)[C@@H](O)[C@H](O)[C@H]3N)O[C@@H]2CO)[C@H](N)[C@@H](O)[C@@H]1O,MTB25 (S),,,,MIC,,0.75 µg/mL
O=C1C2=Cc3ccccc3OC2(O)Oc2ccccc21,H37Rv,,BACTEC,,inhibition,12.5 µg/mL,0%
Clc1ccc(CCNCCNCc2ccc3c(c2)OCO3)c(Cl)c1,,,,,MIC,,50 µM
Cc1c2cnccc2c(C)c2c1c1ccccc1n2CCNCc1ccccc1,H37Rv,,resazurin,,MIC bound,,<6.25 µg/mL
O=C1CCCN1CCCNCCNCCCc1ccccc1,,,,,MIC,,50 µM
NC(=O)c1cnccn1,Isolate 97-578,,,,MIC,,900 µg/mL
O=C1c2cc(/C=C/CCCCO)ccc2-n2c1nc1ccncc1c2=O,H37Rv,,,,MIC,,0.5 µg/mL
O=C1NC(Nc2ccc(Cl)cc2)=N/C1=C\c1ccccc1Cl,H37Rv,,,,MIC,,<12.5 µg/mL
COc1ccc(-c2cs/c(=N\NC(=O)COc3cnccn3)n2C(C)C)cc1,H37Rv,,,,MIC,,7.5 µg/mL
CCOC(=O)c1nn2c(C)nnc2s1,H37Rv,,BACTEC,,MIC,,≥128 µg/mL
O=C(COc1cnccn1)N/N=c1\scc(-c2ccc(O)cc2)n1-c1ccc(Cl)cc1,H37Rv,,,,MIC,,12.4 µg/mL
COC(=O)C1C(O)C(C)C(=O)C(C)/C=C\C=C(C)C(=O)Nc2c(C)c(OC(C)=O)c3c(c2O)C(=O)C(C)=C2OCOC(=C23)/C(C)=C\C(C)(O)C(O)C(C)C1O,H37Rv,,BACTEC,,MIC bound,,>12.8 µg/mL
CO[C@H]1/C=C/O[C@@]2(C)Oc3c(C)c(O)c4c(O)c(c(/C=N/N5CCN(C)CC5)c(O)c4c3C2=O)NC(=O)/C(C)=C\C=C\[C@H](C)[C@H](O)[C@@H](C)[C@@H](O)[C@@H](C)[C@H](OC(C)=O)[C@@H]1C,PR503,,,,MIC,,0.08 µg/mL
CCCCOc1cccc(NC(=O)OCCN(C)C)c1,My 331/88,,,,MIC,,125 µM
O=C1c2cc(Cl)ccc2-n2c1nc1cnccc1c2=O,H37Rv,,,,MIC,,0.06 µg/mL
NC(N)=NC(N)=Nc1c(F)c(F)c(F)c(F)c1F,H37Rv,,resazurin,,MIC bound,,>6.25 µg/mL
O=C1NC(=NCc2ccc(F)cc2)N/C1=C\c1ccccc1Cl,H37Rv,,,,inhibition,12.5 µg/mL,10%
CC(=O)C(=N\O)/C(C)=N/NC(=O)c1ccncc1,H37Rv,,resazurin,,MIC,,12.5 µg/mL
CC1COc2c(N3CCN(C)CC3)c(F)cc3c(=O)c(C(=O)O)cn1c23,ATCC 35820,,,,MBC,,1 µg/mL
N#Cc1ccc(-c2ccc(OCC(=O)O)cc2CN2CCN(c3ccccn3)CC2)cc1,H37Rv (ATCC 27294),,broth dilution,,MIC,,32 µg/mL
COc1ccc(/C=N/Nc2cc(C)nc3ccc(C4CCCCC4)cc23)c2ccccc12,H37Rv,VERO,,,inhibition,12.5 µg/mL,100%
CC(=O)C1C(=O)OC2C3C=CC(C3)C2C1=O,H37Rv,,BACTEC,,MIC bound,,>12.5 µg/mL
CCCCCCCCOc1ccc(NC(=O)OCCN(C)C)cc1,My 331/88,,,,MIC,,16 µM
O=S(=O)([O-])C1=CC(=N/Cl)/C=CC/1=N\Cl.[Na+],H37Rv,,BACTEC,,MIC bound,,>12.5 µg/mL
N#C[B][n+]1ccc(C(=O)NNCc2cccc(C(F)(F)F)c2)cc1,H37Rv,,,,MIC,,0.8 µg/mL
CCCCCCCCCCCNCCNC1CCCCC1,,,,,MIC,,25 µM
O=C(Nc1ccc2[nH]c(C(=O)N3CC(CCl)c4ccc([N+](=O)[O-])cc43)cc2c1)c1cc2ccccc2o1,H37Rv,,BACTEC,,inhibition,12.5 µg/mL,22%
Cc1cc(NN)c2cc(C3CCCCC3)ccc2n1,H37Rv,VERO,,,MIC,,6.25 µg/mL
COc1ccc(/C=C2N=C(/C=C/c3ccccc3)OC\2=O)cc1OC,H37Rv,,BACTEC,,inhibition,12.5 µg/mL,-39%
CCOc1cccc(NC(=O)OCCN2CCCCC2)c1,My 331/88,,,,MIC,,600 µM

The last 12 rows once more:

SMILES,strain or isolate,cells,method,setting,read-out,dose,result
CC1COc2c(N3CCN(C)CC3)c(F)cc3c(=O)c(C(=O)O)cn1c23,ATCC 35820,,,,MBC,,1 µg/mL
N#Cc1ccc(-c2ccc(OCC(=O)O)cc2CN2CCN(c3ccccn3)CC2)cc1,H37Rv (ATCC 27294),,broth dilution,,MIC,,32 µg/mL
COc1ccc(/C=N/Nc2cc(C)nc3ccc(C4CCCCC4)cc23)c2ccccc12,H37Rv,VERO,,,inhibition,12.5 µg/mL,100%
CC(=O)C1C(=O)OC2C3C=CC(C3)C2C1=O,H37Rv,,BACTEC,,MIC bound,,>12.5 µg/mL
CCCCCCCCOc1ccc(NC(=O)OCCN(C)C)cc1,My 331/88,,,,MIC,,16 µM
O=S(=O)([O-])C1=CC(=N/Cl)/C=CC/1=N\Cl.[Na+],H37Rv,,BACTEC,,MIC bound,,>12.5 µg/mL
N#C[B][n+]1ccc(C(=O)NNCc2cccc(C(F)(F)F)c2)cc1,H37Rv,,,,MIC,,0.8 µg/mL
CCCCCCCCCCCNCCNC1CCCCC1,,,,,MIC,,25 µM
O=C(Nc1ccc2[nH]c(C(=O)N3CC(CCl)c4ccc([N+](=O)[O-])cc43)cc2c1)c1cc2ccccc2o1,H37Rv,,BACTEC,,inhibition,12.5 µg/mL,22%
Cc1cc(NN)c2cc(C3CCCCC3)ccc2n1,H37Rv,VERO,,,MIC,,6.25 µg/mL
COc1ccc(/C=C2N=C(/C=C/c3ccccc3)OC\2=O)cc1OC,H37Rv,,BACTEC,,inhibition,12.5 µg/mL,-39%
CCOc1cccc(NC(=O)OCCN2CCCCC2)c1,My 331/88,,,,MIC,,600 µM